pEC50: −log10 of the molar value.
Tested on: L. donovani LV82 promastigotes
Assay: Promastigote assay (proliferation)
Format: cell-based, Leishmania donovani
Details: read-out: EC50 vs LV82, n ≥ 3 independent experiments

O=C(Nc1ccc(OCc2ccccc2)cc1)N1CCN(CCc2ccncc2)CC1
pEC50: < 4.00
